According to the CheMixHub viscosity set:

Legend:
[1] = xn = mol fraction of the nth substance listed

CCCCOP(=O)(OCCCC)OCCCC
viscosity
Conditions | 298.15 K | 303.15 K | 308.15 K | 313.15 K | 318.15 K | 323.15 K
100 kPa | – | 3.009 ± 0.036 mPa·s | 2.674 ± 0.032 mPa·s | 2.405 ± 0.029 mPa·s | 2.166 ± 0.026 mPa·s | 1.921 ± 0.023 mPa·s
101 kPa | 3.399 ± 0.077 mPa·s | 2.817 ± 5 mPa·s and 3.012 ± 0.069 mPa·s | 2.68 ± 0.031 mPa·s and 2.702 ± 0.062 mPa·s (2×) | 2.43 ± 0.028 mPa·s and 2.441 ± 0.057 mPa·s (2×) | 2.21 ± 0.026 mPa·s and 2.22 ± 0.052 mPa·s (2×) | 2.022 ± 0.048 mPa·s
101.33 kPa | – | – | 2.68 ± 0.064 mPa·s and 2.68 ± 0.24 mPa·s | 2.43 ± 0.058 mPa·s and 2.43 ± 0.22 mPa·s | 2.21 ± 0.053 mPa·s and 2.21 ± 0.2 mPa·s | –

CCCCOP(=O)(OCCCC)OCCCC + C1CCCCC1
[1], 303.2 K, 100 kPa
Conditions | viscosity [mPa·s]
x1 = 0.073 | 0.9019 ± 0.037
x1 = 0.17 | 1.1 ± 0.045
x1 = 0.32 | 1.408 ± 0.059
x1 = 0.56 | 1.918 ± 0.081

CCCCOP(=O)(OCCCC)OCCCC + CCCCCC
viscosity [mPa·s], [1], 101 kPa
Conditions | x1 = 0.1 | x1 = 0.2 | x1 = 0.3 | x1 = 0.4003 | x1 = 0.4996 | x1 = 0.6 | x1 = 0.7003 | x1 = 0.7998 | x1 = 0.8988
298.15 K | 0.416 ± 0.013 | 0.572 ± 0.016 | 0.763 ± 0.02 | 1.01 ± 0.025 | 1.288 ± 0.031 | 1.604 ± 0.038 | 1.978 ± 0.046 | 2.404 ± 0.056 | 2.882 ± 0.066
303.15 K | 0.395 ± 0.012 | 0.537 ± 0.015 | 0.712 ± 0.019 | 0.957 ± 0.024 | 1.193 ± 0.029 | 1.466 ± 0.035 | 1.789 ± 0.042 | 2.175 ± 0.051 | 2.584 ± 0.06
308.15 K | 0.374 ± 0.012 | 0.506 ± 0.014 | 0.666 ± 0.018 | 0.895 ± 0.023 | 1.106 ± 0.027 | 1.349 ± 0.033 | 1.631 ± 0.039 | 1.972 ± 0.046 | 2.33 ± 0.054
313.15 K | 0.358 ± 0.012 | 0.48 ± 0.014 | 0.626 ± 0.017 | 0.821 ± 0.021 | 1.021 ± 0.025 | 1.247 ± 0.03 | 1.503 ± 0.036 | 1.813 ± 0.043 | 2.115 ± 0.049
318.15 K | 0.34 ± 0.011 | 0.454 ± 0.013 | 0.59 ± 0.016 | 0.767 ± 0.02 | 0.952 ± 0.024 | 1.157 ± 0.028 | 1.382 ± 0.033 | 1.653 ± 0.039 | 1.931 ± 0.045
323.15 K | 0.323 ± 0.011 | 0.43 ± 0.013 | 0.557 ± 0.015 | 0.722 ± 0.019 | 0.892 ± 0.023 | 1.075 ± 0.027 | 1.279 ± 0.031 | 1.525 ± 0.037 | 1.773 ± 0.042

CCCCOP(=O)(OCCCC)OCCCC + CCCCCCC
[1], 303.2 K, 100 kPa
Conditions | viscosity [mPa·s]
x1 = 0.086 | 0.4652 ± 0.019
x1 = 0.2 | 0.6206 ± 0.026
x1 = 0.36 | 0.9388 ± 0.039
x1 = 0.6 | 1.269 ± 0.054

CCCCOP(=O)(OCCCC)OCCCC + CCCCCCCCCCCC
viscosity [mPa·s], [1], 101 kPa
Conditions | x1 = 0.1 | x1 = 0.2 | x1 = 0.3002 | x1 = 0.4002 | x1 = 0.5001 | x1 = 0.5999 | x1 = 0.7 | x1 = 0.7998 | x1 = 0.9001
298.15 K | 1.413 ± 0.034 | 1.519 ± 0.036 | 1.645 ± 0.039 | 1.824 ± 0.043 | 2.014 ± 0.047 | 2.229 ± 0.052 | 2.48 ± 0.057 | 2.745 ± 0.063 | 3.054 ± 0.07
303.15 K | 1.316 ± 0.032 | 1.394 ± 0.033 | 1.504 ± 0.036 | 1.648 ± 0.039 | 1.815 ± 0.043 | 2.005 ± 0.047 | 2.204 ± 0.051 | 2.447 ± 0.056 | 2.715 ± 0.062
308.15 K | 1.191 ± 0.029 | 1.28 ± 0.031 | 1.383 ± 0.033 | 1.51 ± 0.036 | 1.659 ± 0.039 | 1.821 ± 0.043 | 2.004 ± 0.047 | 2.245 ± 0.052 | 2.495 ± 0.058
313.15 K | 1.105 ± 0.027 | 1.179 ± 0.029 | 1.272 ± 0.031 | 1.385 ± 0.033 | 1.529 ± 0.036 | 1.666 ± 0.04 | 1.842 ± 0.043 | 2.033 ± 0.048 | 2.235 ± 0.052
318.15 K | 1.023 ± 0.025 | 1.094 ± 0.027 | 1.172 ± 0.029 | 1.279 ± 0.031 | 1.403 ± 0.034 | 1.548 ± 0.037 | 1.69 ± 0.04 | 1.863 ± 0.044 | 2.045 ± 0.048
323.15 K | 0.946 ± 0.024 | 1.02 ± 0.025 | 1.084 ± 0.027 | 1.185 ± 0.029 | 1.293 ± 0.031 | 1.419 ± 0.034 | 1.55 ± 0.037 | 1.696 ± 0.04 | 1.856 ± 0.044

CCCCOP(=O)(OCCCC)OCCCC + CS(C)=O
[1], 303.15 K, 101 kPa
Conditions | viscosity [mPa·s]
x2 = 0.1114 | 3.148 ± 0.88
x2 = 0.2201 | 2.962 ± 0.77
x2 = 0.326 | 2.799 ± 0.68
x2 = 0.4293 | 2.654 ± 0.6
x2 = 0.5302 | 2.582 ± 0.55
x2 = 0.6286 | 2.421 ± 0.49
x2 = 0.7248 | 2.291 ± 0.43

CCCCOP(=O)(OCCCC)OCCCC + Cc1ccccc1C
viscosity [mPa·s], [1], 101.33 kPa
Conditions | x1 = 0.103 | x1 = 0.199 | x1 = 0.395 | x1 = 0.602 | x1 = 0.804 | x1 = 0.902
303.15 K | 0.986 ± 0.098 | 1.256 ± 0.12 | 1.721 ± 0.16 | 1.963 ± 0.18 | 2.505 ± 0.23 | 2.84 ± 0.26
308.15 K | 0.937 ± 0.094 | 1.213 ± 0.12 | 1.618 ± 0.15 | 1.812 ± 0.17 | 2.263 ± 0.21 | 2.561 ± 0.23
313.15 K | 0.906 ± 0.091 | 1.159 ± 0.11 | 1.529 ± 0.14 | 1.664 ± 0.16 | 2.086 ± 0.19 | 2.282 ± 0.21
318.15 K | 0.875 ± 0.088 | 1.102 ± 0.11 | 1.448 ± 0.14 | 1.559 ± 0.15 | 1.904 ± 0.18 | 2.081 ± 0.19

CCCCOP(=O)(OCCCC)OCCCC + c1ccccc1
viscosity [mPa·s], [1]
Conditions | 303.15 K | 308.15 K | 313.15 K | 318.15 K
101 kPa, x1 = 0.106 | 0.794 ± 0.005 | 0.748 ± 0.005 | 0.72 ± 0.005 | 0.681 ± 0.005
101 kPa, x1 = 0.2 | 0.984 ± 0.007 | 0.91 ± 0.006 | 0.865 ± 0.006 | 0.816 ± 0.006
101 kPa, x1 = 0.403 | 1.385 ± 0.011 | 1.263 ± 0.01 | 1.172 ± 0.009 | 1.118 ± 0.008
101 kPa, x1 = 0.609 | 1.883 ± 0.016 | 1.712 ± 0.015 | 1.575 ± 0.014 | 1.472 ± 0.013
101 kPa, x1 = 0.805 | 2.341 ± 0.024 | 2.108 ± 0.021 | 1.927 ± 0.02 | 1.792 ± 0.018
101 kPa, x1 = 0.904 | 2.582 ± 0.028 | 2.324 ± 0.025 | 2.095 ± 0.023 | 1.963 ± 0.021
101.33 kPa, x1 = 0.106 | 0.794 ± 0.081 | 0.748 ± 0.077 | 0.72 ± 0.075 | 0.681 ± 0.072
101.33 kPa, x1 = 0.2 | 0.984 ± 0.098 | 0.91 ± 0.091 | 0.865 ± 0.088 | 0.816 ± 0.083
101.33 kPa, x1 = 0.403 | 1.385 ± 0.13 | 1.263 ± 0.12 | 1.172 ± 0.11 | 1.118 ± 0.11
101.33 kPa, x1 = 0.609 | 1.883 ± 0.17 | 1.712 ± 0.16 | 1.575 ± 0.15 | 1.472 ± 0.14
101.33 kPa, x1 = 0.805 | 2.341 ± 0.21 | 2.108 ± 0.19 | 1.927 ± 0.18 | 1.792 ± 0.17
101.33 kPa, x1 = 0.904 | 2.582 ± 0.23 | 2.324 ± 0.21 | 2.095 ± 0.19 | 1.963 ± 0.18
101.33 kPa, x2 = 0.096 | 2.582 ± 0.062 | 2.324 ± 0.056 | 2.095 ± 0.051 | 1.963 ± 0.048
101.33 kPa, x2 = 0.195 | 2.341 ± 0.056 | 2.108 ± 0.051 | 1.927 ± 0.047 | 1.792 ± 0.044
101.33 kPa, x2 = 0.39 | 1.883 ± 0.046 | 1.712 ± 0.042 | 1.575 ± 0.039 | 1.472 ± 0.037
101.33 kPa, x2 = 0.596 | 1.385 ± 0.035 | 1.263 ± 0.032 | 1.172 ± 0.03 | 1.118 ± 0.029
101.33 kPa, x2 = 0.8 | 0.984 ± 0.026 | 0.91 ± 0.024 | 0.865 ± 0.023 | 0.816 ± 0.022
101.33 kPa, x2 = 0.893 | 0.794 ± 0.021 | 0.748 ± 0.02 | 0.72 ± 0.019 | 0.681 ± 0.019

Several values for one entry are separate records, joined by “and”; a condition that tells them apart may be missing. Equal values may be shown once. ± gives the uncertainty stated by the source.
